Values from PubChem BioAssay AID1259414 (Drosophila RNAi Screening Center, 2018)
Screen: 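Genome-wide screen for host control of endosymbiont load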 (primary screen). Cell system: Drosophila JW18 cells infected with Wolbachia. Knock-down reagent: long dsRNA against Drosophila genes, 0.25 µg dsRNA per well of a 384-well plate. Time to read-out: 5 days. Conditions: cells persistently infected with Wolbachia before knock-down; no added drug. Measurement: 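Imaged fluorescence in situ signal for Wolbachia 23S rRNA per DAPI-counted host cell, given as a robust z-score within each plate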. Scale: Wolbachia per cell robust z: higher = more Wolbachia per host cell than the plate typical. Active means: 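Active if absolute robust z reaches 1.5 in two or more of three replicates, leaving out multi- or no-target dsRNAs, genes unexpressed in JW18 and A1 wells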.
In all, the deposit lists about 24,000 reagents; shown is an unselected part of those that have a named target and a result. In the full data, about 1,210 (5%) got an active call. 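Inactive calls also include excluded dsRNAs with several or no targets, genes unexpressed in JW18, and well A1, regardless of score.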

no.	target	amplicon	Wolbachia per cell robust z, rep 1	Wolbachia per cell robust z, rep 2	Wolbachia per cell robust z, rep 3	Outcome
1	CG31391	DRSC16047	0.0769	-2.54	-0.0196	inactive
2	TwdlT	DRSC21540	-0.352	1.11	-0.00592	inactive
3	Skadu	DRSC40619	-0.0875	-0.481	-0.179	inactive
4	CG30380	DRSC05069	0.587	0.385	0.606	inactive
5	Pex5	DRSC18552	0.384	-0.0845	-0.0805	inactive
6	Pex5	DRSC26136	0.342	-0.572	0.882	inactive
7	Coop	DRSC06604	0.504	0.787	0.855	inactive
8	Coop	DRSC25252	-0.225	-0.686	0.353	inactive
9	Tpl94D	DRSC13593	0.804	1.09	0.723	inactive
10	Tsr1	DRSC11821	-0.342	-0.573	-0.457	inactive
11	CG42399	DRSC00322	-0.83	0.517	-0.0865	inactive
12	CG42399	DRSC00661	0.705	-0.066	0.477	inactive
13	CG30419	DRSC04208	-1.46	0.354	0.389	inactive
14	CG30419	DRSC04209	0.601	-0.427	0.107	inactive
15	CG30419	DRSC22519	0.822	1.03	-0.825	inactive
16	CG13510	DRSC04152	0.257	0.428	0.224	inactive
17	CG10086	DRSC14183	-4.67	-0.0298	0.428	inactive
18	nAChRalpha7	DRSC20078	0.292	0.591	0.544	inactive
19	nAChRalpha7	DRSC20081	0.142	0.421	-0.179	inactive
20	Prosbeta6	DRSC11256	0.592	0.45	0.107	inactive
21	CG3078	DRSC18531	0.496	0.603	0.148	inactive
22	CG3078	DRSC23471	0.71	1.03	0.973	inactive
23	CG3078	DRSC38979	0.629	0.0634	-0.331	inactive
24	Obp22a	DRSC00088	-1.69	-1.5	0.0238	inactive
25	Nup62	DRSC06970	0.737	-0.855	1.54	inactive
26	Zif	DRSC12514	0.715	-0.423	1.17	inactive
27	milt	DRSC00965	-0.992	-1.27	-1.93	inactive
28	milt	DRSC00966	-0.576	-0.738	-0.705	inactive
29	milt	DRSC02281	-0.252	0.543	-0.66	inactive
30	milt	DRSC28963	0.498	-0.875	-2.03	inactive
31	milt	DRSC41278	0.191	-1.7	-0.127	inactive
32	CG15118	DRSC06540	0.302	0.61	-0.0675	inactive
33	Pss	DRSC11757	-0.226	0.579	-0.455	inactive
34	CG11686	DRSC14350	-0.341	0.383	-0.0125	inactive
35	CG6356	DRSC16026	0.9	-2.12	0.143	inactive
36	CG17145	DRSC10247	0.485	0.478	-0.418	inactive
37	CG18368	DRSC06731	0.194	-0.742	0.745	inactive
38	CG3919	DRSC10389	-0.829	-0.267	0.326	inactive
39	Lcp1Psi	DRSC05105	1.15	-5.65	2.05	inactive
40	Lcp1Psi	DRSC28465	0.0715	0.866	0.196	inactive
41	LysP	DRSC08676	0.0254	0.655	1.06	inactive
42	LysP	DRSC25210	0.111	1.3	0.15	inactive

Limited to “Wolbachia per cell robust z, rep 3”, for 6 of the entries above:
milt [DRSC02281] = -0.66
milt [DRSC28963] = -2.03
milt [DRSC41278] = -0.127
CG15118 [DRSC06540] = -0.0675
Pss [DRSC11757] = -0.455
CG11686 [DRSC14350] = -0.0125

More results follow.
no.	target	amplicon	Wolbachia per cell robust z, rep 1	Wolbachia per cell robust z, rep 2	Wolbachia per cell robust z, rep 3	Outcome
43	CG10252	DRSC14221	-1.11	-0.226	-0.149	inactive
44	CG31606	DRSC01012	-2.92	-0.871	-1.68	active
45	Uba2	DRSC11311	0.371	-0.0903	-3.37	inactive
46	CG13159	DRSC06283	0.636	1.21	-0.672	inactive
47	CG13159	DRSC28093	-0.749	-0.681	0.603	inactive
48	CG17807	DRSC04296	-1.35	-1.61	-4.23	active
49	CG17807	DRSC26388	1.33	2.89	-0.0657	inactive
50	Vrp1	DRSC04148	-0.157	0.516	-3.71	inactive
51	Vrp1	DRSC26671	1.14	0.783	0.241	inactive
52	Idh3b	DRSC16040	-0.795	0.566	0.636	inactive
53	Idh3b	DRSC28483	0.704	-0.0577	-0.0891	inactive
54	I-3	DRSC20479	-2.38	-2.16	-2.73	inactive
55	sog	DRSC20379	0.154	0.719	-0.0713	inactive
56	CG8757	DRSC11039	-2.07	-1.92	-1.26	inactive
57	CG8757	DRSC24587	-5.46	-0.338	-0.434	inactive
58	CG7362	DRSC16236	-0.263	-0.00361	0.125	inactive
59	CG7362	DRSC29548	0.387	0.458	-0.534	inactive
60	Fancl	DRSC14550	-0.0985	-5.46	-0.168	inactive
61	CG42335	DRSC14597	1.37	0.452	0.519	inactive
62	CG42335	DRSC15892	1.43	-0.785	-2.04	inactive
63	CG42335	DRSC25666	0.884	1.21	0.825	inactive
64	CG10165	DRSC02017	-0.0989	-0.597	0.0744	inactive
65	yip2	DRSC03640	0.152	1.68	0.641	inactive
66	CG13557	DRSC04195	-0.903	-1.57	-1.13	inactive
67	IFT43	DRSC02892	-0.464	0.535	-0.656	inactive
68	CG10098	DRSC12509	0.209	-0.213	0.89	inactive
69	CG10098	DRSC26223	0.833	-0.416	0.511	inactive
